{"source": "patent US20140274782A1", "about": "“AFFINITY REAGENTS AND METHODS FOR DETECTION, PURIFICATION, AND PROTEOMIC ANALYSIS OF METHYLATED PROTEINS” (The Board of Trustees of the Leland Stanford Junior …, priority 2013, published 2014)", "biological_target": "CMTM3-CKLF-like MARVEL transmembrane domain containing 3 (CMTM3), transcript variant 4 (human) (UniProt Q96MX0)", "assay": "ProtoArray, GST-treated control array"}
{"substance": "3× Flag-3×MBT (designed binder)", "values": [{"measurement": "GST Average SNR", "result": 0.469}]}
